A mixed list of measured activities; the numbers were collected in NIAID ChemDB.

Shared fields: growth or infection tests; species: Human cytomegalovirus; read-out: EC50

Rows are shuffled and stem from different studies.

smiles,strain or isolate,cells,method,value
Nc1ncnc2c1ncn2[C@@H]1C[C@H](O)[C@@H](O)[C@H]1O,DAVIS (100 PFU),HEL,cytopathic effect,0.7 µg/mL
O=C1NC(=O)c2c1c1c([nH]c3cccc(F)c31)c1[nH]c3cccc(F)c3c21,-,VERO,plaque count,>10 µM
CN(C)c1cccc2c(S(=O)(=O)Nc3ccc(NC(=O)C(C)(C)CO)cc3)cccc12,-,-,-,0.27 µM
C[C@@H](O)C1=C[C@@H](n2cnc3c(N)ncnc32)[C@H](O)[C@@H]1O,DAVIS (100 PFU),HEL,cytopathic effect,0.05 µg/mL
COc1cc(Cn2c(=O)ccn(CC#N)c2=O)cc(OC)c1OC,AD169,-,-,>151 µM
CC(C)(C)C(=O)OCOC(=O)CN(CC(=O)OCOC(=O)C(C)(C)C)P(=O)(OC[C@H]1O[C@@H](n2ccc3c(N)ncnc32)C[C@@H]1O)Oc1ccccc1,AD169,HEL,-,>100 µM
O=C(O)C[C@H](NCCN[C@@H](CC(=O)O)C(=O)O)C(=O)O,Ganciclovir- and HPMPC-resistant,HEL,plaque count,11.7 µg/mL
CC1CNCCN1S(=O)(=O)c1cccc2cnccc12,AD169,HEF,plaque count,12.5 µM
O=C(Nc1cccc([N+](=O)[O-])c1)c1cc(Cl)c2ccccc2c1O,-,U373,-,0.1 µM
Nc1nc2c(ncn2COC(CO)CO)c(=O)[nH]1,DAVIS,HEL,plaque count,0.7 µg/mL
Cc1cc(C)cc(Cn2c(=S)ccn(Cc3c(F)cccc3F)c2=O)c1,AD169,-,-,>13 µM
Nc1ccn([C@@H]2CS[C@H](CO)O2)c(=O)n1,-,NHDF,-,>100 µM
NC(=O)c1ncn([C@@H]2O[C@H](CO)[C@@H](O)[C@H]2O)n1,AD-169 (100 PFU),HEL,cytopathic effect,>100 µg/mL
Cc1cn([C@H]2C[C@H](N=[N+]=[N-])[C@@H](CO)O2)c(=O)[nH]c1=O,-,NHDF,-,>100 µM
O=c1ccn(Cc2c(F)cccc2F)c(=O)n1-c1ccccc1,AD169,-,-,>64 µM
CC(=O)O[C@H]1C[C@H](n2cc(/C=C/Br)c(=O)[nH]c2=O)O[C@@H]1COP1(=O)OCc2cccc(C)c2O1,AD169,HELF,plaque count,>128 µg/mL
Nc1ncnc2c1ncn2[C@@H]1C=C(CO)[C@@H](O)[C@H]1O,DAVIS (100 PFU),HEL,cytopathic effect,0.3 µg/mL
C[C@H](Cn1cnc2c(NC3CC3)ncnc21)OCP(=O)(O)O,DAVIS,-,-,0.12 µg/mL
CC(=O)CCC(=O)O[C@H]1C[C@H](n2cc(/C=C/Br)c(=O)[nH]c2=O)O[C@@H]1COP1(=O)OCc2ccccc2O1,AD169,HELF,plaque count,>128 µg/mL
Nc1ncnc2c1ncn2[C@@H]1C=C[C@@H](O)[C@H]1O,AD-169 (100 PFU),HEL,cytopathic effect,19.25 µg/mL
C[C@H](N)C(=O)OCP(=O)(OC[C@H]1O[C@@H](n2cnc3c(Cl)nccc32)C[C@@H]1O)Oc1ccccc1,DAVIS,HEL,-,>100 µM
COC(=O)[C@]1(O)C[C@@H]2O[C@@]1(C)n1c3ccccc3c3c4c(c5c6ccccc6n2c5c31)C(=O)NC4,Isolate 6,HEF,plaque count,0.02 µM
Nc1ccn([C@H]2CC[C@@H](CO)O2)c(=O)n1,-,NHDF,-,>100 µM
Nc1nc(F)nc2c1ncn2/C=C1/CC1CO,AD169,HFF,cytopathic effect,>4 µM
CC(C)(C)C(=O)OCOC(=O)CN(CC(=O)OCOC(=O)C(C)(C)C)P(=O)(OC[C@H]1O[C@@H](n2cnc3c(Cl)nccc32)C[C@@H]1O)Oc1ccccc1,DAVIS,HEL,-,>100 µM
Nc1ccn(C[C@@H](CO)OCP(=O)(O)O)c(=O)n1,LY9990 (ganciclovir-resistant),HEL,plaque count,0.4 µg/mL
OC[C@@H]1O[C@@H](n2c(Br)nc3ccccc32)[C@H](O)[C@@H]1O,AD169,-,-,0.8 µM
O=c1ccn(Cc2c(F)cccc2F)c(=O)[nH]1,AD169,-,-,>210 µM
Nc1ncnc2c1ncn2[C@@H]1C[C@H](CO)[C@@H](O)[C@H]1O,DAVIS (20 PFU),HEL,plaque count,>100 µg/mL
C[C@@H](N)C(=O)O[C@H]1C[C@H](n2cc(/C=C/Br)c(=O)[nH]c2=O)O[C@@H]1COP1(=O)OCc2ccccc2O1,AD169,HELF,plaque count,>128 µg/mL
Nc1nc(F)nc2c1ncn2/C=C1\CC1CO,AD169,HFF,cytopathic effect,>60 µM
N#CCn1ccc(=O)n(Cc2cc(F)cc(F)c2)c1=O,AD169,-,-,>180 µM
CC(C)(C)C(=O)OCOC(=O)CN(CC(=O)OCOC(=O)C(C)(C)C)P(=O)(OC[C@H]1O[C@@H](n2cc(/C=C/Br)c(=O)[nH]c2=O)C[C@@H]1O)Oc1ccccc1,AD169,HEL,-,>20 µM
Cc1cccc2c1OP(=O)(OC[C@H]1O[C@@H](n3cc(/C=C/Br)c(=O)[nH]c3=O)C[C@@H]1OC(=O)C(C)(C)C)OC2,AD169,HELF,plaque count,>128 µg/mL
O=C1NC(=O)c2c1c1c3cc(O)ccc3[nH]c1c1[nH]c3ccc(O)cc3c21,-,VERO,plaque count,>10 µM
Cc1ccc(Cn2c(=O)ccn(CC#N)c2=O)c(C)c1,AD169,-,-,74 µM
O=C1NC(=O)c2c1c1c3cc(Cl)ccc3[nH]c1c1[nH]c3ccc(Cl)cc3c21,-,VERO,plaque count,0.16 µM
CCCC/C(O)=C(\C#N)C(=O)Nc1ccc(C(F)(F)F)cc1,TW-087,HEL 299,plaque count,1040–1150 µM
Cc1cccc2c1[nH]c1c3[nH]c4c(C)cccc4c3c3c(c21)C(=O)NC3=O,-,VERO,plaque count,>10 µM
Nc1nccc2c1ncn2[C@@H]1C[C@H](CO)[C@@H](O)[C@H]1O,AD-169 (20 PFU),HEL,plaque count,1.63 µg/mL
Nc1ncnc2c1ccn2[C@H]1C[C@H](O)[C@@H](CO)O1,AD169,HEL,-,>100 µM
Cn1c2ccccc2c2c3c(c4c5ccccc5n(CCC#N)c4c21)CNC3=O,AD169,HEF,plaque count,0.04 µM
Nc1ccn(C[C@@H](CO)OCP(=O)(O)O)c(=O)n1,AD169,HEL,-,0.8 µM
Nc1ncnc2c1ncn2C[C@H](O)CO,AD-169 (20 PFU),HEL,plaque count,>100 µg/mL
O=c1ccn(Cc2ccccc2)c(=O)n1Cc1ccccc1,AD169,-,-,24 µM
Nc1nc(Cl)nc2c1ncn2/C=C1\CC1CO,AD169,HFF,cytopathic effect,231 µM
Cc1cccc(C)c1Cn1c(=O)ccn(CC#N)c1=O,AD169,-,-,>186 µM
CC(C)(C)c1cccc2c1OP(=O)(OC[C@H]1O[C@@H](n3cc(/C=C/Br)c(=O)[nH]c3=O)C[C@@H]1O)OC2,AD169,HELF,plaque count,>128 µg/mL
COc1ccc2c(c1)[nH]c1c3[nH]c4cc(OC)ccc4c3c3c(c21)C(=O)NC3=O,-,VERO,plaque count,0.5 µM
O=C(NCCc1c[nH]c2ccccc12)C1=Cc2ccncc2CC1,D16,MRC-5,plaque count,1.6 µM
Nc1nccc2c1ncn2[C@@H]1C=C(CO)[C@@H](O)[C@H]1O,DAVIS (20 PFU),HEL,plaque count,0.05 µg/mL

Repeating the final 5 entries:

smiles | strain or isolate | cells | method | value
Cc1cccc(C)c1Cn1c(=O)ccn(CC#N)c1=O | AD169 | - | - | >186 µM
CC(C)(C)c1cccc2c1OP(=O)(OC[C@H]1O[C@@H](n3cc(/C=C/Br)c(=O)[nH]c3=O)C[C@@H]1O)OC2 | AD169 | HELF | plaque count | >128 µg/mL
COc1ccc2c(c1)[nH]c1c3[nH]c4cc(OC)ccc4c3c3c(c21)C(=O)NC3=O | - | VERO | plaque count | 0.5 µM
O=C(NCCc1c[nH]c2ccccc12)C1=Cc2ccncc2CC1 | D16 | MRC-5 | plaque count | 1.6 µM
Nc1nccc2c1ncn2[C@@H]1C=C(CO)[C@@H](O)[C@H]1O | DAVIS (20 PFU) | HEL | plaque count | 0.05 µg/mL

a–b is a range or a potency band. Blank or dashed fields: not listed here. ECn: concentration that inhibits the pathogen or its effect by n%.